Source: PMC10227026, “Rapid evolution of A(H5N1) influenza viruses after intercontinental spread to North America” (2023)

Tests used:
M2 of Eagle/FL/22 (H5N1) = experiment: Genotypic susceptibility to M2 protein inhibitors; conditions: M2 residues 26, 27, 30, 31, 34
M2 of Eagle/NC/22 (H5N1) = experiment: Genotypic susceptibility to M2 protein inhibitors; conditions: M2 residues 26, 27, 30, 31, 34
M2 of Hawk/NC/22 (H5N1) = experiment: Genotypic susceptibility to M2 protein inhibitors; conditions: M2 residues 26, 27, 30, 31, 34
[1] = tested on: M2 of Wigeon/SC/21 (H5N1); experiment: Genotypic susceptibility to M2 protein inhibitors; conditions: M2 residues 26, 27, 30, 31, 34
M2 of Scaup/GA/22 (H5N1) = experiment: Genotypic susceptibility to M2 protein inhibitors; conditions: M2 residues 26, 27, 30, 31, 34
M2 of Ck/NL/21 (H5N1) = experiment: Genotypic susceptibility to M2 protein inhibitors; conditions: M2 residues 26, 27, 30, 31, 34

SMILES | EC50 (Hawk/NC/22 (H5N1)) [nM] | EC50 (Eagle/NC/22 (H5N1)) [nM] | Susceptibility to M2 inhibitor (amantadine) (M2 of Eagle/FL/22 (H5N1)) | Susceptibility to M2 inhibitor (amantadine) (M2 of Eagle/NC/22 (H5N1)) | Susceptibility to M2 inhibitor (amantadine) (M2 of Hawk/NC/22 (H5N1)) | Susceptibility to M2 inhibitor (amantadine) [1] | Susceptibility to M2 inhibitor (amantadine) (M2 of Scaup/GA/22 (H5N1)) | Susceptibility to M2 inhibitor (amantadine) (M2 of Ck/NL/21 (H5N1))
O=C1c2c(O)c(=O)ccn2N([C@@H]2c3ccccc3SCc3c2ccc(F)c3F)[C@@H]2COCCN12 | 0.27 | 0.52 | – | – | – | – | – | –
NC12CC3CC(CC(C3)C1)C2 | – | – | S | S | S | S | S | S
